Mutational interference map of HIV-1 RNA dimerization

Sequence of the HIV-1 NL4-3 5' RNA, positions 1 to 437, as numbered in the source:
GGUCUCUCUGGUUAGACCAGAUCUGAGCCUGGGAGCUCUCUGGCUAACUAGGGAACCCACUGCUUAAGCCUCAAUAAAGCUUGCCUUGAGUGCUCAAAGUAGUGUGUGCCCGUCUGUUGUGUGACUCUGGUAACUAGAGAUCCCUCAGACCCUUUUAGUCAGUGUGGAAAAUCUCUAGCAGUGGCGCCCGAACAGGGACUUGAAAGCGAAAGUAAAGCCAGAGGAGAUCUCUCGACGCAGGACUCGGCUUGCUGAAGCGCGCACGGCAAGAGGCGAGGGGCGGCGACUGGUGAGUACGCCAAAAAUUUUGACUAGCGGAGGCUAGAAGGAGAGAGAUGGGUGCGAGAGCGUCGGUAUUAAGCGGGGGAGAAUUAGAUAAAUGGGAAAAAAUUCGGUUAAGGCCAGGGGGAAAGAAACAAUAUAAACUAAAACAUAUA

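Randomly mutated transcripts starting with one, two or three G (1G, 2G, 3G), capped or uncapped, were folded for 30 min at 37 °C. High salt was 300 mM KCl and 5 mM MgCl2, low salt 40 mM KCl and 0.1 mM MgCl2; monomer and dimer were parted on a native gel. Mutation frequencies in the two bands give Kdimer.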

Scale: median log2 Kdimer over the changes at a position; positive = changes inhibit dimerization, negative = changes enhance it. One numbering serves 1G, 2G and 3G. A position is written with its base.

For A293 (domain SL2) the result was 3G capped low-salt -0.49; 3G uncapped low-salt -0.46.
For G294 (domain SL2) the result was 3G capped low-salt -0.82; 3G uncapped low-salt -0.90.
For U295 (domain SL2) the result was 3G capped low-salt -0.52; 3G uncapped low-salt -0.46.
For A296 (domain SL2) the result was 3G capped low-salt 0.27; 3G uncapped low-salt 0.19.
For C297 (domain SL2) the result was 3G capped low-salt -0.03; 3G uncapped low-salt -0.03.
For G298 (domain SL2) the result was 3G capped low-salt -0.49; 3G uncapped low-salt -0.31.
For C299 (domain SL2) the result was 3G capped low-salt -0.34; 3G uncapped low-salt 0.12.
For C300 the result was 3G capped low-salt -0.33; 3G uncapped low-salt -0.52.
For A301 the result was 3G capped low-salt 0.35; 3G uncapped low-salt 0.31.
For A302 the result was 3G capped low-salt -0.01; 3G uncapped low-salt 0.03.
For A303 the result was 3G capped low-salt 0.01; 3G uncapped low-salt 0.04.
For A304 the result was 3G capped low-salt -0.01; 3G uncapped low-salt 0.08.
For A305 the result was 3G capped low-salt 0.23; 3G uncapped low-salt 0.19.
For U306 the result was 3G capped low-salt -0.01; 3G uncapped low-salt -0.01.
For U307 the result was 3G capped low-salt -0.06; 3G uncapped low-salt -0.08.
For U308 the result was 3G capped low-salt -0.08; 3G uncapped low-salt -0.13.
For U309 the result was 3G capped low-salt 0.32; 3G uncapped low-salt 0.18.
For G310 the result was 3G capped low-salt -0.02; 3G uncapped low-salt 0.10.
For A311 the result was 3G capped low-salt 0.34; 3G uncapped low-salt 0.75.
For C312 (domain SL3) the result was 3G capped low-salt 0.17; 3G uncapped low-salt 0.33.
For U313 (domain SL3) the result was 3G capped low-salt 1.16; 3G uncapped low-salt 1.42.
For A314 (domain SL3) the result was 3G capped low-salt -0.31; 3G uncapped low-salt -0.22.
For G315 (domain SL3) the result was 3G capped low-salt 0.62; 3G uncapped low-salt 0.50.
For C316 (domain SL3) the result was 3G capped low-salt 0.63; 3G uncapped low-salt 0.80.
For G317 (domain SL3) the result was 3G capped low-salt 0.20; 3G uncapped low-salt 0.19.
For G318 (domain SL3) the result was 3G capped low-salt -0.14; 3G uncapped low-salt -0.12.

The first 2 entries again:

position,domain,3G capped low-salt,3G uncapped low-salt
A293,SL2,-0.49,-0.46
G294,SL2,-0.82,-0.90

Reference: Ye et al. 2022, doi:10.1038/s41594-022-00746-2.